B1: 4B2 antibody (murine IgG2a, hybridoma-produced) (antibody, V domains shown)
VH: QIQLVQSGPELKKPGETVKISCKASGFTFTDYPMHWVKQAPGKSLKWMGWINTETEEPTYSDDFKGRFALSLETSASTTYLQINNLKNEDTATYFCARSGYYYGSTYAWFGYWGQGTLVTVSA
VL: DVVMTQIPLSLPVSLGDQASISCRSSQSLIHTNGDTFLHWYLQKPGQSPKLLIYKVSNRFSGVPDRFTGGGSGTDFTLKISRVEAEDLGIYFCSQSALFPYTFGGGTNLEIK
notes: also called mAb 4B2
B2: 4F11 antibody (murine IgG2b, hybridoma-produced) (antibody, V domains shown)
VH: DVKLVESGGDLVKPGGSLKLSCAASGFTFSAYSMSWVRQTPERRLEWVATINTGGSFTYYPDSVKGRFTISRDNAKNTLYLQMSSLKSEDTAMYFCTRVSDYGNSAYFPYWGQGTLVIVSA
VL: QVVLTQSPALISASPGEKVTMTCSASSNVNYMSWYQQRPRSSPKPWIYLTSKLASGVPPRFSGSGSGTSYSLTISSMEAEDVATYYCQQWSSDPQTFGGGTKVEIK
notes: also called mAb 4F11; 4F11 Hybridoma
B3: 1F4 antibody (murine IgG2a, hybridoma-produced) (antibody, V domains shown)
VH: QVHLQQSGSELRSPGSSVKLSCKDFDSEVFPIVYMRWIRQKPGHGFEWIGDILPSFGRTIYGEKFEDKATLDADTVSNTAYLELNSLTSEDSAIYYCARGDHGNWLAYWGQGTLVTVSA
VL: DIVMTQSHKFMSTSVGDRVTITCKASQDVSTAVAWYQQKPGQSPKLLIYWASTRHTGVPNRFTGIISGTDYTLTISSVQAEDLALYYCQQHYSAPWTFGGGTKLEIK
notes: also called mAb 1F4; IF4
B4: 3G1 antibody (murine IgG2a, hybridoma-produced) (antibody, V domains shown)
VH: QVQLQQSGAELMKPGASVKISCKATGYKFTSYWIGWVKQRPGHGLEWCGEIFPGSGSINYNEKFKGKATFTADTSSNTAYLQLTSLTSEDSAVYYCARGEDYYGSSYGAMDYWGQGTSLTVSS
VL: DVQITQSPSYLAASPGETITINCRASKSISKYVAWYQEKPGRTNKVLIYSGSILSFGNPSRFSGSGSGTDFTLTISSLEPEDFAMYYCQQHNEYPWTFGGGTKLEIK
notes: also called mAb 3G1

Each binder was assayed against recombinant neuraminidase (rNA) of B/Malaysia/2506/04 (influenza B virus B/Malaysia/2506/04).
For B1, the Kd was 1.75 nM and the koff was 0.000364 s⁻¹.
For B2, the Kd was 0.152 nM and the koff was 3.76e-05 s⁻¹.
B3 was tested, and the Kd was 0.819 nM and the koff was 4.25e-05 s⁻¹.
Work on B4 yielded a Kd of 0.532 nM and a koff of 0.000255 s⁻¹.
